Numbering of substitutions follows the chain as printed.
B1: Antibody 1.1.64-1 (antibody, human IgG1, kappa)
heavy: QVQLLQSGAAVTKPGASVRVSCEASGYNIRDYFIHWWRQAPGQGLQWVGWINPKTGQPNNPRQFQGRVSLTRHASWDFDTFSFYMDLKALRSDDTAVYFCARQRSDYWDFDVWGSGTQVTVSSASTKGPSVFPLAPSSKSTSGGTAALGCLVKDYFPEPVTVSWNSGALTSGVHTFPAVLQSSGLYSLSSVVTVPSSSLGTQTYICNVNHKPSNTKVDKKVEPKSCDKTHTCPPCPAPELLAGPDVFLFPPKPKDTLMISRTPEVTCVVVDVSHEDPEVKFNWYVDGVEVHNAKTKPREEQYNSTYRVVSVLTVLHQDWLNGKEYKCKVSNKALPLPEEKTISKAKGQPREPQVYTLPPSREEMTKNQVSLTCLVKGFYPSDIAVEWESNGQPENNYKTTPPVLDSDGSFFLYSKLTVDKSRWQQGNVFSCSVLHEALHSHYTQKSLSLSPGK
light: not shown
B2: Antibody 2.2.1-1 (antibody, human IgG1, kappa)
heavy: B1 heavy with Q3H, L5S, N28K, Y32H, L90V, V97I
light: not shown

Assays:
Assay in all cases: cell-based or functional assay
[1] = biological target: HIV-1 envelope glycoprotein (Env, gp120) of virus 1003 (HIV-1)
[2] = biological target: HIV-1 envelope glycoprotein (Env, gp120) of virus 1012 (HIV-1)
[3] = biological target: HIV-1 envelope glycoprotein (Env, gp120) of virus 1413 (HIV-1)
[4] = biological target: HIV-1 envelope glycoprotein (Env, gp120) of virus 1489 (HIV-1)
[5] = biological target: HIV-1 envelope glycoprotein (Env, gp120) of virus 7015 (HIV-1)
[6] = biological target: HIV-1 envelope glycoprotein (Env, gp120) of virus 7051 (HIV-1)
[7] = biological target: HIV-1 envelope glycoprotein (Env, gp120) of virus 7103 (HIV-1)
[8] = biological target: HIV-1 envelope glycoprotein (Env, gp120) of virus 7141 (HIV-1)
[9] = biological target: HIV-1 envelope glycoprotein (Env, gp120) of virus 7467 (HIV-1)
[10] = biological target: HIV-1 envelope glycoprotein (Env, gp120) of virus 7552 (HIV-1)
[11] = biological target: HIV-1 envelope glycoprotein (Env, gp120) of virus 7576 (HIV-1)
[12] = biological target: HIV-1 envelope glycoprotein (Env, gp120) of virus 7595 (HIV-1)
[13] = biological target: HIV-1 envelope glycoprotein (Env, gp120) of virus 8106 (HIV-1)
[14] = biological target: HIV-1 envelope glycoprotein (Env, gp120) of virus 8110 (HIV-1)
[15] = biological target: HIV-1 envelope glycoprotein (Env, gp120) of virus 8117 (HIV-1)
[16] = biological target: HIV-1 envelope glycoprotein (Env, gp120) of virus 8134 (HIV-1)
[17] = biological target: HIV-1 envelope glycoprotein (Env, gp120) of virus 8176 (HIV-1)
[18] = biological target: HIV-1 envelope glycoprotein (Env, gp120) of virus 8318 (HIV-1)
[19] = biological target: HIV-1 envelope glycoprotein (Env, gp120) of virus 8320 (HIV-1)
[20] = biological target: HIV-1 envelope glycoprotein (Env, gp120) of virus 302076 (HIV-1)
[21] = biological target: HIV-1 envelope glycoprotein (Env, gp120) of virus 92HT593 (HIV-1)
[22] = biological target: HIV-1 envelope glycoprotein (Env, gp120) of virus 92US657 (HIV-1)
[23] = biological target: HIV-1 envelope glycoprotein (Env, gp120) of virus 92US712 (HIV-1)
[24] = biological target: HIV-1 envelope glycoprotein (Env, gp120) of virus 92US727 (HIV-1)
[25] = biological target: HIV-1 envelope glycoprotein (Env, gp120) of virus CHO77 (HIV-1)
[26] = biological target: HIV-1 envelope glycoprotein (Env, gp120) of virus REJO (HIV-1)
[27] = biological target: HIV-1 envelope glycoprotein (Env, gp120) of virus THRO (HIV-1)
[28] = biological target: HIV-1 envelope glycoprotein (Env, gp120) of virus VS001 (HIV-1)
[29] = biological target: HIV-1 envelope glycoprotein (Env, gp120) of virus VS004 (HIV-1)
[30] = biological target: HIV-1 envelope glycoprotein (Env, gp120) of virus VS017 (HIV-1)
[31] = biological target: HIV-1 envelope glycoprotein (Env, gp120) of virus VS026 (HIV-1)
[32] = biological target: HIV-1 envelope glycoprotein (Env, gp120) of virus VS030 (HIV-1)
[33] = biological target: HIV-1 envelope glycoprotein (Env, gp120) of virus VS039 (HIV-1)
[34] = biological target: HIV-1 envelope glycoprotein (Env, gp120) of virus VS042 (HIV-1)
[35] = biological target: HIV-1 envelope glycoprotein (Env, gp120) of virus VS043 (HIV-1)
[36] = biological target: HIV-1 envelope glycoprotein (Env, gp120) of virus VS044 (HIV-1)
[37] = biological target: HIV-1 envelope glycoprotein (Env, gp120) of virus VS046 (HIV-1)
[38] = biological target: HIV-1 envelope glycoprotein (Env, gp120) of virus VS049 (HIV-1)
[39] = biological target: HIV-1 envelope glycoprotein (Env, gp120) of virus VS052 (HIV-1)

Binder	Virus Neutralization Potency [1] [µg/mL]	Virus Neutralization Potency [2] [µg/mL]	Virus Neutralization Potency [3] [µg/mL]	Virus Neutralization Potency [4] [µg/mL]	Virus Neutralization Potency [5] [µg/mL]	Virus Neutralization Potency [6] [µg/mL]	Virus Neutralization Potency [7] [µg/mL]	Virus Neutralization Potency [8] [µg/mL]	Virus Neutralization Potency [9] [µg/mL]	Virus Neutralization Potency [10] [µg/mL]	Virus Neutralization Potency [11] [µg/mL]	Virus Neutralization Potency [12] [µg/mL]	Virus Neutralization Potency [13] [µg/mL]	Virus Neutralization Potency [14] [µg/mL]	Virus Neutralization Potency [15] [µg/mL]	Virus Neutralization Potency [16] [µg/mL]	Virus Neutralization Potency [17] [µg/mL]	Virus Neutralization Potency [18] [µg/mL]	Virus Neutralization Potency [19] [µg/mL]	Virus Neutralization Potency [20] [µg/mL]	also measured
B1	2.97	1.41	4.22	0.16	0.65	2.05	1.56	1.82	0.06	> 80	0.39	1.71	3.31	6.74	1.77	0.6	0.66	0.33	2.89	0.08	Virus Neutralization Potency [21]: 0.37 µg/mL; Virus Neutralization Potency [22]: 0.42 µg/mL; Virus Neutralization Potency [23]: 0.06 µg/mL; Virus Neutralization Potency [24]: 1.12 µg/mL; Virus Neutralization Potency [25]: 0.04 µg/mL; Virus Neutralization Potency [26]: 0.02 µg/mL; Virus Neutralization Potency [27]: 3.87 µg/mL; Virus Neutralization Potency [28]: 0.06 µg/mL; Virus Neutralization Potency [29]: 2.43 µg/mL; Virus Neutralization Potency [30]: 0.91 µg/mL; Virus Neutralization Potency [31]: 0.17 µg/mL; Virus Neutralization Potency [32]: 2.6 µg/mL; Virus Neutralization Potency [33]: 0.09 µg/mL; Virus Neutralization Potency [34]: 2.33 µg/mL; Virus Neutralization Potency [35]: 0.85 µg/mL; Virus Neutralization Potency [36]: 0.16 µg/mL; Virus Neutralization Potency [37]: 0.04 µg/mL; Virus Neutralization Potency [38]: 32.2 µg/mL
B2	1.61	3.7	4.13	0.26	0.47	0.97	1.72	3.93	0.03	39.6	0.7	9.72	2.46	3.62	0.94	1.52	0.3	0.36	3.88	0.07	Virus Neutralization Potency [39]: 0.24 µg/mL; Virus Neutralization Potency [21]: 0.17 µg/mL; Virus Neutralization Potency [22]: 0.25 µg/mL; Virus Neutralization Potency [23]: 0.05 µg/mL; Virus Neutralization Potency [24]: 4.84 µg/mL; Virus Neutralization Potency [25]: 0.02 µg/mL; Virus Neutralization Potency [26]: 0.01 µg/mL; Virus Neutralization Potency [27]: 2.17 µg/mL; Virus Neutralization Potency [28]: 0.08 µg/mL; Virus Neutralization Potency [29]: 2.84 µg/mL; Virus Neutralization Potency [30]: 0.84 µg/mL; Virus Neutralization Potency [31]: 0.13 µg/mL; Virus Neutralization Potency [32]: 2.51 µg/mL; Virus Neutralization Potency [33]: 0.03 µg/mL; Virus Neutralization Potency [34]: 0.89 µg/mL; Virus Neutralization Potency [35]: 1.01 µg/mL; Virus Neutralization Potency [36]: 0.13 µg/mL; Virus Neutralization Potency [37]: 0.03 µg/mL; Virus Neutralization Potency [38]: 2.89 µg/mL

Source: patent publication US20220089698A1, “ANTIBODIES THAT TARGET HIV GP120 AND METHODS OF USE” (published 2022)
